Assay results published in US7053234B2 (Amgen Inc., priority 2000, dated 2006).

Protein sequences, listed by entry. Tags and fused reporters are not part of them.
UniProt P47768, whole entry: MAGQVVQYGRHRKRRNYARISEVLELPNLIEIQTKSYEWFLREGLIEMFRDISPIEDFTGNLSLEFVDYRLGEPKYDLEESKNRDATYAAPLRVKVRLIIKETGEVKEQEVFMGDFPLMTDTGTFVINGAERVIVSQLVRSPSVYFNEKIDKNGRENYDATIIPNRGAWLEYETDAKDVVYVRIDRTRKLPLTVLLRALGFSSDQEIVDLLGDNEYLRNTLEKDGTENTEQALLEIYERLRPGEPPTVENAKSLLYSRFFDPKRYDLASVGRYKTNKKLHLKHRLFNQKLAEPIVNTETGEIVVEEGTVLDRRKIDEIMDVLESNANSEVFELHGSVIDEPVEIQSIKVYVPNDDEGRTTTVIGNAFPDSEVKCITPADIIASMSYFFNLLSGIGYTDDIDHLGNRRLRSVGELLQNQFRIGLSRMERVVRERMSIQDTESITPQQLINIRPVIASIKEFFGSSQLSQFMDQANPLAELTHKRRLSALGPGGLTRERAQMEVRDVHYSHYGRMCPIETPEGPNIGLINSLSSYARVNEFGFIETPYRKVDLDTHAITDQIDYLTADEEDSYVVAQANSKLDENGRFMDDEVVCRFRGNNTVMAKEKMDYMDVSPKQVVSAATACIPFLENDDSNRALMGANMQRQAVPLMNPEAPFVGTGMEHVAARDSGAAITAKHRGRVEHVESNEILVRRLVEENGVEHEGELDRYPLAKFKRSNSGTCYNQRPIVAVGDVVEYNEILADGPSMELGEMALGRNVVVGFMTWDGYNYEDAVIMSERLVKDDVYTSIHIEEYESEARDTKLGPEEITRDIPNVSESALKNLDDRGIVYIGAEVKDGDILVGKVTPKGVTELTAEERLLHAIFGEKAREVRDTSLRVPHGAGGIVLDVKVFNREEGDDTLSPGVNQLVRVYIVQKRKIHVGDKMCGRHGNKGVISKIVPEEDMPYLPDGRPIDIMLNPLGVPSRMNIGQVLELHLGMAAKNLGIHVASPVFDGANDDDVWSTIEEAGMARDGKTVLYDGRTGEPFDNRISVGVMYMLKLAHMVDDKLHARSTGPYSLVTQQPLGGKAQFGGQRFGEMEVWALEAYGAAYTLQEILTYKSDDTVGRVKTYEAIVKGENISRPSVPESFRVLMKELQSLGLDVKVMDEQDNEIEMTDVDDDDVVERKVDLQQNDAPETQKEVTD
UniProt Q2G0N5, whole entry: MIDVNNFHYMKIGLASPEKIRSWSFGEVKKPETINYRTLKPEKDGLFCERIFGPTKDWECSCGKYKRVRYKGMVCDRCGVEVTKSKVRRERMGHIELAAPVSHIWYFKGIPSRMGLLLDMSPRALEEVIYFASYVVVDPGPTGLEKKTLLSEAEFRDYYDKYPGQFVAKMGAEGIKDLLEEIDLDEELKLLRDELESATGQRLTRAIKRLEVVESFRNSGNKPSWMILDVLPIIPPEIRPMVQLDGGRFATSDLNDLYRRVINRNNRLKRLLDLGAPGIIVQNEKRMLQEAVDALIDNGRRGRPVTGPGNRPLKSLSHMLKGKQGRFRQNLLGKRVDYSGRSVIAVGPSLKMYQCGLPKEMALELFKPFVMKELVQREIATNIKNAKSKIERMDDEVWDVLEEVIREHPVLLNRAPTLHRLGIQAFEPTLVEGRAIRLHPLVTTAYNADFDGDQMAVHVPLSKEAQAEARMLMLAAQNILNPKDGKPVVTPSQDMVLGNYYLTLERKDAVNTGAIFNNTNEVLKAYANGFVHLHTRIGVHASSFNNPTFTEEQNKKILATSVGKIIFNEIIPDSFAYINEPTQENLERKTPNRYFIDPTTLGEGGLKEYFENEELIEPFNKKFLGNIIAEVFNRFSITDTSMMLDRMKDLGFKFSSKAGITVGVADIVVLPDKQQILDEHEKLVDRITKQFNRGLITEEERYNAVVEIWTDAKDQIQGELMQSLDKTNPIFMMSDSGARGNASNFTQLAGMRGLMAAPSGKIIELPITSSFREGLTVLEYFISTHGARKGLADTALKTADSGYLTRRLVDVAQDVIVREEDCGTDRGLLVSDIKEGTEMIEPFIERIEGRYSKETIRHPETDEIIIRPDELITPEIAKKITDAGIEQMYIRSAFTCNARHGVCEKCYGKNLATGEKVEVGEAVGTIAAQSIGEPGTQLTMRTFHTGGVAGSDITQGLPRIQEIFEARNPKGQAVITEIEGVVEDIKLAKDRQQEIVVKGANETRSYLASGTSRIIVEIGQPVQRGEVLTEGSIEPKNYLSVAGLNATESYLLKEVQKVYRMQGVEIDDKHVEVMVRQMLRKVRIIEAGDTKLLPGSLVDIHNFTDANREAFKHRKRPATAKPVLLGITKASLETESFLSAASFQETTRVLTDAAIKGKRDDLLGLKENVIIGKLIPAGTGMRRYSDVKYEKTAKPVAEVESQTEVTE
UniProt Q2FW32, whole entry partner: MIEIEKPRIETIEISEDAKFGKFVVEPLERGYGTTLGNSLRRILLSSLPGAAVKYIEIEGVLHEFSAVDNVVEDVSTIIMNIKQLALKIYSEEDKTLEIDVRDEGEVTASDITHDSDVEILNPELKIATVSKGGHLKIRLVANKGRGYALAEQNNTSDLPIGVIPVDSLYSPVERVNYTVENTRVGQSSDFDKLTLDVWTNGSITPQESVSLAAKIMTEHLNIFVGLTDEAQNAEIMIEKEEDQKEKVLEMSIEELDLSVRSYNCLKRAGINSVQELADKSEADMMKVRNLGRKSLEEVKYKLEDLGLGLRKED

Assays:
S. aureus = assay: MIC determination, S. aureus; assay type: cell-based; conditions: Table 2
E. coli (tolC) = assay: MIC determination, E. coli (tolC); assay type: cell-based; conditions: Table 2
Method: For MIC determinations for selected bacteria, log phase growing bacteria are re-suspended at 1×10^5 bacteria per mL in LB medium. The compound is added and two-fold dilutions are made. The final volume in the 96-well plate is about 100 uL. The plate is incubated at 37° C. in the dark with shaking. After 16 hours of incubation, growth is monitored by reading A600 or by visual inspection. MIC is defined as the minimum concentration of drug resulting in inhibition of visible growth of bacterial under the conditions described (above) in National Committee for Clinical Laboratory Standards 1993. Methods for dilution antimicrobial susceptibility tests for bacteria that grow aerobically. Approved standard M7-A3; National Committee for Clinical Laboratory Standards: Villanova, Pa.

RNA-pol S. aureus = RNA-pol S. aureus (Staphylococcus aureus, UniProt P47768+Q2G0N5); assay: RNA polymerase inhibition assay (S. aureus enzyme); conditions: read-out: RNA-pol IC50 (μM) S. aureus; Table 2

SMILES: O=C(Nc1ccc(Cl)c(Cl)c1)Nc1cc(C(=O)Nc2cccc(Cl)c2)cc(C(F)(F)F)c1N1CCCC1
- MIC (μM) S. aureus (S. aureus): +++ (less than 40 μM)
- MIC (μM) E. coli (tolC) (E. coli (tolC)): + (greater than 125 μM)
- IC50 (RNA-pol S. aureus): < 10 µM
